Results on one substance are retold here after publication PMC10508830 (Antiviral research, 2023).

Protein sequences, listed by entry. Tags and fused reporters are not part of them.
UniProt Q9Q0U7, whole entry, looked up: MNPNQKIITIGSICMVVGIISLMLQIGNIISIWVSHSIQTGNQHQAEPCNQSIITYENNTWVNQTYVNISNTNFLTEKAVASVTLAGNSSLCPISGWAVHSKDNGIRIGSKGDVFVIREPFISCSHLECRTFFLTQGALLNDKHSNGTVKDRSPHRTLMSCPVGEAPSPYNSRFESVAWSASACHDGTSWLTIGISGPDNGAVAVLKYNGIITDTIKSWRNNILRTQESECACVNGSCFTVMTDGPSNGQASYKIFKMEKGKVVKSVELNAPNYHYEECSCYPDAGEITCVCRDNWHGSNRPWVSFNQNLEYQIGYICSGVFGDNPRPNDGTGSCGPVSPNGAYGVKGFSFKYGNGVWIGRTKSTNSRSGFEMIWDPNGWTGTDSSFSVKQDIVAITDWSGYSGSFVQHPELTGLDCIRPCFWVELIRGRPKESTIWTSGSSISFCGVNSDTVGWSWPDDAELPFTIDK

What all share (conditions): read-out: Mean IC50 ± SD
Assay [1] addresses NA of A/fox/Wisconsin/22-013774-002/2022 (Influenza A virus, UniProt Q9Q0U7). It counts as biochemical.
The target of assay [2] is NA of A/red-shouldered hawk/Minnesota/22-012000-004/2022 (Influenza A virus, UniProt Q9Q0U7). It counts as biochemical.
Assay [3] concerns the target NA of A/black vulture/Maryland/22-012407-001/2022 (Influenza A virus (H5N1), UniProt Q9Q0U7). The class given is biochemical.
Assay [4] addresses NA of A/turkey/Iowa/22-012098-001/2022 (Influenza A virus, UniProt Q9Q0U7). It counts as biochemical.
Assay [5] addresses NA of A/bald eagle/Florida/22-006544-004/2022 (Influenza A virus, UniProt Q9Q0U7). It counts as biochemical.
Assay [6] has as its target NA of A/black vulture/Florida/22-012333-001/2022 (N/S295, T/N438, mixed population) (Influenza A virus (H5N1), UniProt Q9Q0U7). The class given is biochemical.
In assay [7] the target is NA of A/Cooper's hawk/Minnesota/22-012931-001/2022 (Influenza A virus, UniProt Q9Q0U7). The class given is biochemical, influenza A(H5N1) virus.
The target of assay [8] is NA of A/Canada goose/Wyoming/22-011671-001/2022 (Influenza A virus, UniProt Q9Q0U7). The class given is biochemical, influenza A(H5N1) virus.

As usually defined, the IC50 is the concentration needed to halve the response being measured. Regarding oseltamivir carboxylate, the half-maximal inhibitory concentration (IC50) in assay [1] amounted to 2.78 nM; in assay [2] it was 2.39 nM; in assay [3] it was 2.31 nM; in assay [4], 2.66 nM; in assay [5] it was 3.01 nM; in assay [6], 11.1 nM. Also, the IC50 was found to be 2.73 nM in assay [7] and 2.7 nM in assay [8].
